# Source: article PMC11426533 (PLOS Pathogens, 2024)
# Tested on: CC(=O)N[C@H]1[C@H](Oc2ccc3c(C)cc(=O)oc3c2)O[C@H](CO)[C@@H](O[C@@H]2O[C@H](CO)[C@@H](O)[C@H](O)[C@H]2NC(C)=O)[C@@H]1O
# Test: purified protein
# Conditions: pH 5.0; 37.0 °C
substance,measurement,value
ChiA (Clostridium perfringens),Km,145.8 ± 91.3 µM
same,kcat/Km,21000 M⁻¹ s⁻¹
